## HIV-1 5' UTR: DMS reactivities by position

Reference: Ye et al. 2022, doi:10.1038/s41594-022-00746-2.

Sequence of the HIV-1 NL4-3 5' RNA, positions 1 to 437, as numbered in the source:
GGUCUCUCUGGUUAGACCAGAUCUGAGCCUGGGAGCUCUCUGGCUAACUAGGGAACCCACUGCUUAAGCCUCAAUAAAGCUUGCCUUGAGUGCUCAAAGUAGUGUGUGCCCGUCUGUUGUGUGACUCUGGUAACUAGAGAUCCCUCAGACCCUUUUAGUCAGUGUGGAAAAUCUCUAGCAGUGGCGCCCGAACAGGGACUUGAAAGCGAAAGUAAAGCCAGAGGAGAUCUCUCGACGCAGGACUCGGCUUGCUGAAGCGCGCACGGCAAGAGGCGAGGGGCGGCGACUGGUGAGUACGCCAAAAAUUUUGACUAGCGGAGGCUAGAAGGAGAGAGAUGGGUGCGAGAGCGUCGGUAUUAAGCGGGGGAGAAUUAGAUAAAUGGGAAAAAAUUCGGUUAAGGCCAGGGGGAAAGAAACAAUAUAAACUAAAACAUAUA

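Randomly mutated transcripts starting with one, two or three G (1G, 2G, 3G), capped or uncapped, were folded for 30 min at 37 °C. High salt was 300 mM KCl and 5 mM MgCl2, low salt 40 mM KCl and 0.1 mM MgCl2; monomer and dimer were parted on a native gel. Gel slices were treated with 170 mM dimethyl sulfate for 15 min at 37 °C and read by mutational profiling against an ethanol control.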

Values are winsor-normalised DMS reactivities of A and C; higher means more reactive, usually unpaired.
One numbering serves 1G, 2G and 3G.
A position is written with its base.

{"position": "C23", "3G uncapped high-salt dimer": 1.33, "1G capped low-salt monomer": 1.18, "2G capped low-salt monomer": 1.32}
{"position": "A34", "3G uncapped high-salt dimer": 1.07, "1G capped low-salt monomer": 1.00, "2G capped low-salt monomer": 1.11}
{"position": "C40", "3G uncapped high-salt dimer": 0.03, "1G capped low-salt monomer": 0.04, "2G capped low-salt monomer": 0.03}
{"position": "A50", "3G uncapped high-salt dimer": 0.12, "1G capped low-salt monomer": 0.23, "2G capped low-salt monomer": 0.13}
{"position": "C56", "3G uncapped high-salt dimer": 0.04, "1G capped low-salt monomer": 0.17, "2G capped low-salt monomer": 0.04}
{"position": "C85", "3G uncapped high-salt dimer": 0.27, "1G capped low-salt monomer": 0.31, "2G capped low-salt monomer": 0.31}
{"position": "A98", "3G uncapped high-salt dimer": 0.53, "1G capped low-salt monomer": 0.39, "2G capped low-salt monomer": 0.36}
{"position": "C127", "3G uncapped high-salt dimer": 0.03, "1G capped low-salt monomer": 0.04, "2G capped low-salt monomer": 0.03}
{"position": "A169", "3G uncapped high-salt dimer": 0.70, "1G capped low-salt monomer": 0.71, "2G capped low-salt monomer": 0.72}
{"position": "A171", "3G uncapped high-salt dimer": 0.41, "1G capped low-salt monomer": 0.44, "2G capped low-salt monomer": 0.42}
{"position": "A198", "3G uncapped high-salt dimer": 0.52, "1G capped low-salt monomer": 0.61, "2G capped low-salt monomer": 0.58}
{"position": "C229", "3G uncapped high-salt dimer": 0.17, "1G capped low-salt monomer": 0.22, "2G capped low-salt monomer": 0.26}
{"position": "C260", "3G uncapped high-salt dimer": 0.31, "1G capped low-salt monomer": 0.51, "2G capped low-salt monomer": 0.45}
{"position": "A293", "3G uncapped high-salt dimer": 0.81, "1G capped low-salt monomer": 0.76, "2G capped low-salt monomer": 0.72}
{"position": "A305", "3G uncapped high-salt dimer": 0.68, "1G capped low-salt monomer": 0.73, "2G capped low-salt monomer": 0.74}
{"position": "C316", "3G uncapped high-salt dimer": 0.05, "1G capped low-salt monomer": 0.12, "2G capped low-salt monomer": 0.14}
{"position": "A324", "3G uncapped high-salt dimer": 0.09, "1G capped low-salt monomer": 0.11, "2G capped low-salt monomer": 0.13}
{"position": "A326", "3G uncapped high-salt dimer": 0.83, "1G capped low-salt monomer": 0.83, "2G capped low-salt monomer": 0.81}
{"position": "A336", "3G uncapped high-salt dimer": 0.67, "1G capped low-salt monomer": 0.86, "2G capped low-salt monomer": 0.74}
{"position": "C343", "3G uncapped high-salt dimer": 0.38, "1G capped low-salt monomer": 0.30, "2G capped low-salt monomer": 0.49}
{"position": "A368", "3G uncapped high-salt dimer": 0.81, "1G capped low-salt monomer": 1.03, "2G capped low-salt monomer": 0.90}
{"position": "A374", "3G uncapped high-salt dimer": 0.40, "1G capped low-salt monomer": 0.46, "2G capped low-salt monomer": 0.42}
{"position": "A389", "3G uncapped high-salt dimer": 0.12, "1G capped low-salt monomer": 0.17, "2G capped low-salt monomer": 0.14}
{"position": "A399", "3G uncapped high-salt dimer": 0.20, "1G capped low-salt monomer": 0.31, "2G capped low-salt monomer": 0.23}
{"position": "A411", "3G uncapped high-salt dimer": 0.82, "1G capped low-salt monomer": 0.83, "2G capped low-salt monomer": 0.86}
{"position": "A437", "3G uncapped high-salt dimer": 0.03, "1G capped low-salt monomer": 0.04, "2G capped low-salt monomer": 0.03}

The opening 2 entries, copied out:

position	3G uncapped high-salt dimer	1G capped low-salt monomer	2G capped low-salt monomer
C23	1.33	1.18	1.32
A34	1.07	1.00	1.11